The values that follow come from patent US8143421B2, “Broadspectrum substituted benzimidazole sulfonamide HIV protease inhibitors” (priority 2002, dated 2012).

The data set relates to mock-infected MT4 cells. Briefly: Toxicity on mock-infected MT4 cells (CC50). The following applies: pCC50 value as determined with mock transfected cells. Here is the method: HIV- or mock-infected MT4 cells were incubated for five days in the presence of various concentrations of the inhibitor. […] Cell viability is measured by measuring the concentration of MTT, a yellow, water soluble tetrazolium dye that is converted to a purple, water insoluble formazan in the mitochondria of living cells only. Upon solubilization of the resulting formazan crystals with isopropanol, the absorbance of the solution is monitored at 540 nm. The values correlate directly to the number of living cells remaining in the culture at the completion of the five day incubation. The inhibitory activity of the compound was monitored on the virus-infected cells and was expressed as IC50 and IC90. These values represent the amount of the compound required to protect 50% and 90%, respectively, of the cells from the cytopathogenic effect of the virus. The toxicity of the compound was measured on the mock-infected cells and was expressed as CC50, which represents the concentration of compound required to inhibit the growth of the cells by 50%. […] Wherever results are reported as e.g. pIC50 or pCC50 values, the result is expressed as the negative logarithm of the result expressed as IC50 or CC50 respectively.
As a measure of the broad spectrum activity of the present compounds, the fold resistance (FR), defined as FR=IC50(mutant strain)/IC50(HIV-1 strain LAI), was determined.

`CC(C)CN(C[C@@H](O)[C@H](Cc1ccccc1)NC(=O)OCc1cncs1)S(=O)(=O)c1ccc2ncn(Cc3ccccc3)c2c1` [Compound 30]: the “Tox (pCC50)” value is reported as under 4.

On to `CC(C)CN(C[C@@H](O)[C@H](Cc1ccccc1)NC(=O)OC(C)(C)C)S(=O)(=O)c1ccc2nc(N)n(Cc3ccccc3)c2c1` [Compound 39], for which the “Tox (pCC50)” value came out at 4.3.
